This is an account of results in article PMC12749166, “Fragment-based drug design of a bacterial kinase inhibitor capable of increasing the antibiotic sensitivity of clinical isolates” (Communications Chemistry, 2025).

The chains behind the UniProt entries cited, without tags or fusion partners. Residues count along the entry.
UniProt O68183, 1-301: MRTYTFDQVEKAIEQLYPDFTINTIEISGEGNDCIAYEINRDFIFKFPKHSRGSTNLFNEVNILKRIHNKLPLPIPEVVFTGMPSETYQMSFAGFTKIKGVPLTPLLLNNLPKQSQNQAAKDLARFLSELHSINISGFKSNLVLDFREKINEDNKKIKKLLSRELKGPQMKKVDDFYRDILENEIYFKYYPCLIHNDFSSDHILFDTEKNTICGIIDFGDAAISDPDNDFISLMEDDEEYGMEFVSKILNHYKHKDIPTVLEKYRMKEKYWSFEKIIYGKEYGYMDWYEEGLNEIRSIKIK

As usually defined, the Ki is a measure of affinity in units of concentration, obtained from inhibition or displacement.

Assay [1] concerns the target T1, APH(2”)-IVa (Enterococcus casseliflavus, UniProt O68183). Description: Coupled enzyme system activity assay (inhibition % and Ki). The settings on record: read-out: Ki (µM), inhibition constant; ATP-competitive; 0-2 mM MgATP, 100 µM kanamycin A, global fitting.
Assay [2] concerns the target T1, APH(2”)-IVa. The settings on record: compound at 500 µM, protein at 5 µM.

Consider `Clc1cnc2[nH]ccc2c1-c1ccn[nH]1` [Compound 83], for which, on APH(2”)-IVa [1], the Ki is 0.388 µM.

Consider `Nc1ccc(Cl)cn1` [Compound F69], for which the “ΔTm (°C)” value on APH(2”)-IVa [2] amounted to 1.25 °C.
